Target: His-SUMO-RipAC (Ralstonia solanacearum GMI1000, UniProt Q9RBS2 1-1024)
Experiment: pull-down

B1: GST-AtSGT1b (natural protein, Arabidopsis, UniProt Q9SUT5 1-358, looked up)
chain: MAKELAEKAKEAFLDDDFDVAVDLYSKAIDLDPNCAAFFADRAQANIKIDNFTEAVVDANKAIELEPTLAKAYLRKGTACMKLEEYSTAKAALEKGASVAPNEPKFKKMIDECDLRIAEEEKDLVQPMPPSLPSSSTTPLATEADAPPVPIPAAPAKPMFRHEFYQKPEEAVVTIFAKKVPKENVTVEFGEQILSVVIDVAGEEAYHLQPRLFGKIIPEKCRFEVLSTKVEIRLAKAEIITWASLEYGKGQSVLPKPNVSSALSQRPVYPSSKPAKDWDKLEAEVKKQEKDEKLDGDAAMNKFFSDIYSSADEDMRRAMNKSFAESNGTVLSTNWKEVGTKKVESTPPDGMELKKWEY
Question: Does B1 bind?
Answer: binds

B2: GST-AtSGT1a (natural protein, Arabidopsis, UniProt Q9SUR9 1-350, looked up)
chain: MAKELADKAKEAFVDDDFDVAVDLYSKAIDLDPNCAEFFADRAQAYIKLESFTEAVADANKAIELDPSLTKAYLRKGTACMKLEEYRTAKTALEKGASITPSESKFKKLIDECNFLITEEEKDLVQPVPSTLPSSVTAPPVSELDVTPTAKYRHEYYQKPEEVVVTVFAKGIPKQNVNIDFGEQILSVVIEVPGEDAYYLQPRLFGKIIPDKCKYEVLSTKIEICLAKADIITWASLEHGKGPAVLPKPNVSSEVSQRPAYPSSKKVKDWDKLEAEVKKQEKDEKLEGDAALNKFFREIYQNADEDMRRAMSKSFVESNGTVLSTNWQEVGTKTIESTPPDGMELKKWEI
Question: Does B2 bind?
Answer: binds

From article PMC7540872, “A bacterial effector protein prevents MAPK-mediated phosphorylation of SGT1 to suppress plant immunity” (PLoS Pathogens, 2020)
